Measurements published in paper PMC8121815 (Nature Communications, 2021).

Experiments:
[1] = tested on: hTOM70 mutant E477A; assay: ITC, hTOM70 mutant E477A
[2] = tested on: hTOM70 mutant E549A; assay: ITC, hTOM70 mutant E549A
[3] = tested on: hTOM70 mutant D545A; assay: ITC, hTOM70 mutant D545A

Structure (SMILES): CC[C@H](C)[C@H](N)C(=O)N[C@H](C(=O)N[C@@H](CC(C)C)C(=O)N[C@@H](CCCNC(=N)N)C(=O)N[C@@H](CC(C)C)C(=O)NCC(=O)N[C@@H](CO)C(=O)N1CCC[C@H]1C(=O)N[C@@H](CC(C)C)C(=O)N[C@@H](CO)C(=O)N[C@@H](CC(C)C)C(=O)N[C@@H](CC(N)=O)C(=O)N[C@@H](CCSC)C(=O)N[C@@H](C)C(=O)N[C@@H](CCCNC(=N)N)C(=O)N[C@@H](CCCCN)C(=O)N[C@H](C(=O)N[C@@H](CC(C)C)C(=O)N[C@@H](CC(N)=O)C(=O)N[C@@H](CO)C(=O)N[C@@H](CC(C)C)C(=O)N[C@@H](CCC(=O)O)C(=O)N[C@@H](CC(=O)O)C(=O)N[C@@H](CCCCN)C(=O)N[C@@H](C)C(=O)N[C@@H](Cc1ccccc1)C(=O)N[C@@H](CCC(N)=O)C(=O)O)[C@@H](C)O)[C@@H](C)CC [C-peptide]
- thermodynamic nature of binding [1]: endothermic
- decrease in affinity compared with the wild-type protein ([1]; 25 °C, pH = 8.0): ~ 267 folds
- impact of mutation on binding [2]: only had a moderate impact on binding
- thermodynamic nature of binding [2]: endothermic
- thermodynamic nature of binding [3]: endothermic
- decrease in affinity compared with the wild-type protein ([3]; 25 °C, pH = 8.0): ~ 52 folds
